This is an account of results in patent US20240003880A1 (TRUSTEES OF COLUMBIA UNIVERSITY IN THE CITY OF NEW YORK, published 2024).

The test concerns the target SARS-CoV-2 nucleocapsid phosphoprotein (SARS-CoV-2, UniProt P0DTC9 1-419). Put plainly: sandwich ELISA, 9-24 as capture, chimeric antibody as detector (FIG. 8B).

B1: chimeric 9-15 (antibody, V domains shown)
VH: QVQLVQSGAEVKKPGSSVKVSCKASGGTFSSYAISWVRQAPGQGLEWMGGIIPIFGTANYAQKFQGRVTITAEESTSTAYMELSSLRSEDTAVYYCARDGWAAAGPDTSLLGTFDIWGQGTMVTVSS
VL: QSALTQPPSVSGSPGQSVTISCTGTSSDVGSYNRVSWYQQPPGTAPKLIIYEVSNRPSGVPDRFSGSKSGNTASLTISGLQAEDEADYYCSSYTSSSTYVVFGGGTKLTVLG
Consider B1, for which the binding result is given as “binds”.

B2: chimeric 9-11 (antibody, V domains shown)
VH: QVQLVQSGAEVKKPGASVKVSCKASGYTFTSYAISWVRQAPGQGLEWMGWISAYTGNTNYAQKLQGRVTMTTDTSTSTAYMELRSLRSDDTAVYYCARNGWDYDTSGTHDYWGQGTLVTVSS
VL: not shown
Regarding B2, the binding result is recorded as “binds”.
